Measured values as given in the supplement of paper PMC9931576.
Human monoclonal antibodies against the spike receptor-binding domain (heavy:light variable regions). IC50 against pseudoviruses bearing the spike of naturally observed variants; lower = stronger; >10 µg/ml means not reached at the top dose. No active / inactive call. The stated detection limit is 0.0005 µg/ml; values near or below 0.001 µg/ml lie at the floor of the assay.

B1: BD56-946 (protein)
chain 1: QVQLQESGPGLVKPSQTLSLTCTVSGGSISSGDYYWSWIRQSPGKGLEWIGYICYNGGTYYNPSLKSRVTMSLDTSKNQFSLKLTSMTAADTAVYYCARNPLRGYTCGYYDDAFDMWGQGTKITVSS
chain 2: EIVLTQSPGTLSLSPGERATLSCRASHIVSTSNLAWYQHKPGQAPRLLVYGASSRATGIPDRFSGSGSGTDFTLTISRLEPEDFAVYYCQQYGGSPYTFGQGTKLEIK
B2: BD56-953 (protein)
chain 1: EVQLVESGGGLVQPGGSLRLSCAASGITVSSNYMRWVRQAPGKGLEWVSLIYSGGSTFYADSVKGRFTVSRDSSKNTLYLQMNSLRYEDTAVYYCARDLDVVGAMDVWGQGTTVTVSS
chain 2: EIVLTQSPGTLSLSPGERATLSCRASQSFSTKFLAWYQQIPGQSPRLLIYGASSRATGVPDRFSGSGSGTDFTLTISRLEAEDFAVYYCQQYGSSPLTFGGGTRVEIK
B3: BD56-955 (protein)
chain 1: EVQLVESGGGVIQPGGSLRLSCAVSGFTFDDYAMHWVRQAPGKGLEWVSLISGDGGNTYYADSVKGRFTISRDNSKNSLYLQMDSLKTEDTALYYCASLSGHGFLYFYSYGMDVWGQGTTVTVSS
chain 2: DVVMTQSPLSLSVTPGQPASISCKSSRSLLNADRKTYLFWYLQKPGQSPQLLIYEVSSRFSGVPDRFSGSGSGTDFTLKISRVEAEDVGVYYCMQGIHLPYTFGQGTKLEIK
B4: BD56-959 (protein)
chain 1: EVQLVESGGGVVQPGGSLRLSCAVSGFTFDDYAMHWVRQAPGKGLEWVSLISGDGGNTYYADSVKGRFTISRDNSKNSLYLQMDSLKTEDTALYYCATLSGHGFLYYYYYGMDVWGQGTTVTVSS
chain 2: DVVMTQSPLSLSVTPGQPASISCRSSRSLLNADRKTYLFWYLQKPGQSPQLLIYEVSSRFSGVPDRFSGSGSGTDFTLKISRVEAEDVGVYYCMQGIHLPYTFGQGTKLEIK
B5: BD56-962 (protein)
chain 1: EVQLVQSGTEVKKPGESLKISCKGSGFSFISYWIGWVRQMPGKGLEWMGIIYPGDSDTRYAPSVQGQVTISADKSISTAYLQWSSLKASDTAMYYCARREGTYSSGWEVWGQGTLVTVSS
chain 2: QSVLTQPPSASGTPGQRVTISCSGSSSNIGSNGVNWYQQLPGTAPTLLIYNNNQRPSGVPDRFSGSKSGTSASLAISGLQSEDEADYYCAAWDDTLNGVLFGGGTKLTVL
B6: BD56-967 (protein)
chain 1: QVQLVESGGGVVQPGRSLRLSCTVSGFTFRSYGMHWVRQAPGKGLEWVAVISYDGSDKFYPDSVKGRFTISRDNSKNTLYLQMNSLRAEDTAVYYCAKTVAPYCSGGNCLSGYFDYWGQGILVTVSS
chain 2: DIQMTQSPSSLSASVGDRVTITCQASQDISNFLNWYQQKPGKAPKLLMYDISNLETGVPSRFSGSGSGTDFTFTISSLQPEDIATYYCQQYDSLPLTFGGGTKVEIK
B7: BD56-972 (protein)
chain 1: QVQLVQSGAEMKKPGASVKLSCKASGYTFTNNYIHWVRQAPGQGLEWMGIINPSGGSTSYAQKFQGRVTLSRDTSTPTVYMELSSLKSEDTAVYYCARELSITSVEWEPADYYYGMDAWGQGSKVTVSS
chain 2: SFDLNQPSSVSVSPGQTASITCSGDELGDKSVSWYRQKSGQSPSLFIYQDTKRLSGIPERFSGSRSGKTATLTISGAQPMDEAAYYCQAWDSRTARVVFGGGTKLTVL
B8: BD56-974 (protein)
chain 1: QVQLVQSGAEVKKPGSSVKVSCKASGGTFSSYPIAWVRQAPGHGLEWMGGIIPIFGTPNYAQMFQGRVTITADESTSTAFMELRSLRSEDTAMYYCARSQSETGAYNWFDPWGQGTLVTVSS
chain 2: SYVLTQTPSVSVAPGKTARITCGGNNIGSKSVHWYQQRPGQAPVLVVFDDSDRPSGIPERFSGSNSGNTATLTISRVEAGDEADYYCQVWDSRSDHYVFGTGTKVTVL
B9: BD56-976 (protein)
chain 1: QVQLVESGGGVVQPGRSLRLSCAASGFTFSKYAMHWVRQAPGKGLEWVAVLSYDGTGTYYGDSVKGRFTVSRDNSKNTLYLQMNSLRPEDTAVYYCAKGGQYADYVRGGDYWGQGTLVIVSS
chain 2: DIQMTQSPSSLSASVGDRVIITCQASQDINYYLNWYQQKPGKAPKLLIYDAADLEAGVPSRFSGTGSGTDFTLTISSLQPEDFATYYCQQYNILPLTFGGGTKVEIK
B10: BD56-1076 (protein)
chain 1: QVQLVQSGPEVKKPGASVKVSCKASGYSFITYGISWVRQAPGQGLEWMGWISAYDGHTNYAQKLQGRVTLTTDTSTTTAYMELRSLKSDDTAVYYCARDLERKYEVSATDAFDIWGQGTMVTVSS
chain 2: SYELTQPSSVSVSPGQTARITCSGDLLAQKFARWFQQKPGQAPVMVIYKDSERPSGIPERFSGSSSGTTVTLTISGAQVADEADYYCYSATDNIRVFGGGTKLTVL
B11: BD56-1092 (protein)
chain 1: QVQLVQSGAEVKKPGSSVKVSCKASGGTFSSYAINWVRQAPGQGLEWMGRIIPMFGTVNYAQKFQGRVTINADESTSTAYMELSSLRSEDTAVYYCARGMFGHIVVVVAAIGFDIWGQGTMVTVAS
chain 2: QSVLTQPPSVSGAPGQRVTISCTGSSSNIGAGYDVHWYQQLPETAPKLLIYDSTNRPSGVSDRFSGSKSGTSASLAITGLQAEDEADYYCQSYDNDLSGMLFGGGTKLTVL
B12: BD58-0448 (protein)
chain 1: QVTLRESGPALVKPTQTLTLTCTFSGFSLSTSGMCVSWIRQPPGKALEWLARIDWDDDKYYNTSLKTRLTISKDTSKNQVVLTMTNMDPVDTATYYCARIRETDYYGSGSYFYGMDVWGQGTTVTVSS
chain 2: DIVMTQSPLSLPVTPGEPASISCRSSQSLLHNNGYNYLDWYLQRPGQSPQLLIYLGSDRASGVPDRFSGSGSGTDFTLKISRVEAEDVGVYYCMQALQTPPTFGQGTKLEIK

What follows are binders tested against SARS-CoV-2 Omicron BA.1 spike pseudovirus (assay: pseudovirus neutralization IC50; higher = weaker neutralization).
Procedure: (§1)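 Single-round VSV luciferase pseudovirus mixed with antibody dilutions for 1 h and put on Huh-7 cells for about a day; IC50 from the dose curve.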

Binder | pseudovirus neutralization IC50 [µg/mL]
B1 | 0.613
B2 | 0.176
B3 | 0.161
B4 | 0.249
B5 | 0.328
B6 | > 10
B7 | 0.538
B8 | 0.602
B9 | > 10
B10 | 1.69
B11 | > 10
B12 | 0.0152

The binders below were run against SARS-CoV-2 Omicron BA.2 spike pseudovirus in the same assay as above.
Procedure: as §1

Binder | pseudovirus neutralization IC50 [µg/mL]
B1 | 0.418
B2 | 0.275
B3 | 0.24
B4 | 0.302
B5 | 0.817
B6 | > 10
B7 | 1.07
B8 | 1.34
B9 | > 10
B10 | 1.58
B11 | > 10
B12 | 0.0138

Each binder was assayed against SARS-CoV-2 Omicron BA.2.75 spike pseudovirus in the same assay as above.
Procedure: as §1

Binder | pseudovirus neutralization IC50 [µg/mL]
B1 | 0.266
B2 | 1.32
B3 | 0.218
B4 | 0.235
B5 | 1.67
B6 | > 10
B7 | 1.03
B8 | 0.663
B9 | > 10
B10 | 2.83
B11 | > 10
B12 | 0.143

What follows are binders tested against SARS-CoV-2 Omicron BA.5 spike pseudovirus in the same assay as above.
Procedure: as §1

Binder | pseudovirus neutralization IC50 [µg/mL]
B1 | 2.73
B2 | 1.11
B3 | > 10
B4 | > 10
B5 | 0.932
B6 | > 10
B7 | 1.13
B8 | > 10
B9 | > 10
B10 | 1.45
B11 | > 10
B12 | 0.0129

What follows are binders tested against SARS-CoV-2 Omicron BQ.1.1 spike pseudovirus in the same assay as above.
Procedure: as §1

Binder | pseudovirus neutralization IC50 [µg/mL]
B1 | 3.63
B2 | > 10
B3 | > 10
B4 | > 10
B5 | 1.34
B6 | > 10
B7 | 3.4
B8 | > 10
B9 | > 10
B10 | 1.85
B11 | > 10
B12 | > 10

What follows are binders tested against SARS-CoV-2 Omicron XBB spike pseudovirus in the same assay as above.
Procedure: as §1

Binder | pseudovirus neutralization IC50 [µg/mL]
B1 | 2.13
B2 | > 10
B3 | 2.75
B4 | 1.92
B5 | 1.34
B6 | > 10
B7 | 4.28
B8 | 0.942
B9 | > 10
B10 | 2.56
B11 | > 10
B12 | > 10

The binders below were run against SARS-CoV-2 early D614G spike pseudovirus in the same assay as above.
Procedure: as §1

Binder | pseudovirus neutralization IC50 [µg/mL]
B1 | 0.868
B2 | 0.0114
B3 | 0.362
B4 | 0.38
B5 | 0.232
B6 | > 10
B7 | 2.64
B8 | > 10
B9 | 2.51
B10 | > 10
B11 | > 10
B12 | > 10
